Measured values reported in patent US20250304937A1.

Target: denosumab (XGEVA) (human)
Experiment: cell-based or functional assay

## pCART124 (IdeS control with N terminal methionine and histidine tag) (enzyme)
  1st IgG2 (XGEVA) heavy chain IgG to scIgG, Conc. of enzyme (ng/ml), gel: 14 ng/mL
  1st IgG heavy chain IgG to scIgG, Conc. of enzyme (ng/ml), gel: 14 ng/mL
  2nd IgG2 (XGEVA) heavy chain scIgG to F(ab')2, Conc. of enzyme (ng/ml), gel: 1100 ng/mL
  EC50 (ng/ml) in cleavage of IgG2 (XGEVA), potency ELISA: 199 ng/mL
